Results from PMC3612826, “Structural-Functional Analysis of 2,1,3-Benzoxadiazoles and Their N-oxides As HIV-1 Integrase Inhibitors” (Acta Naturae, 2013).

Assays:
recombinant HIV-1 IN = recombinant HIV-1 IN (Human immunodeficiency virus type 1 group M subtype B, UniProt P12497); test: Inhibition of the 3'-end processing reaction; format: biochemical
wild-type HIV-1 IN = wild-type HIV-1 IN (Human immunodeficiency virus type 1 group M subtype B, UniProt P12497); test: Inhibition of the strand transfer reaction, wild-type IN; format: biochemical; conditions: for Inhibitory activity during the strand transfer reaction, wild-type, IC95: 95 % suppression
HIV-1 IN active site = HIV-1 IN active site (Human immunodeficiency virus type 1 group M subtype B, UniProt P12497); conditions: read-out: IC, binding of DNA at the active site of IN; covalent attachment of U5B/U5A^m duplex 10 nM to IN 100 nM, 1 h, 37°C
HIV-1 IN N155H mutant = HIV-1 IN N155H mutant (Human immunodeficiency virus type 1 group M subtype B, UniProt P12497, N1302H); test: Inhibition of the strand transfer reaction, Raltegravir-resistant mutant IN; conditions: for Inhibitory activity during the strand transfer reaction, N155H mutant, IC95: 95 % suppression; for pIC50: read-out: Inhibitory activity during the strand transfer reaction, N155H mutant, IC50
[1] = target: HIV-1 IN Q148K/G140S mutant (Human immunodeficiency virus type 1 group M subtype B, UniProt P12497, G1287S/Q1295K); test: as above; conditions: for Inhibitory activity during the strand transfer reaction, Q148K/G140S mutant, IC95: 95 % suppression; for pIC50: read-out: Inhibitory activity during the strand transfer reaction, Q148K/G140S mutant, IC50
[2] = target: HIV-1 IN (DNA-binding activity) (Human immunodeficiency virus type 1 group M subtype B, UniProt P12497); test: Gel shift analysis: binding of IN to DNA; conditions: read-out: IC, binding of IN to DNA, U5B/U5A duplex, 25°C
[3] = read-out: IC, 3'-processing, Mg^2+, Mg^2+ cofactor
[4] = read-out: IC, 3'-processing, Mn^2+, Mn^2+ cofactor
[5] = read-out: IC, strand transfer, Mg^2+, Mg^2+ cofactor
[6] = read-out: IC, strand transfer, Mn^2+, Mn^2+ cofactor
[7] = read-out: Inhibitory activity during the strand transfer reaction, wild-type, IC50, wild-type IN

| Compound | pIC50 (recombinant HIV-1 IN; [3]) | pIC50 (recombinant HIV-1 IN; [4]) | pIC50 (wild-type HIV-1 IN; [5]) | pIC50 (wild-type HIV-1 IN; [6]) | pIC50 (wild-type HIV-1 IN; [7]) | Inhibitory activity during the strand transfer reaction, wild-type, IC95 (wild-type HIV-1 IN; wild-type IN) [µM] | pIC50 (HIV-1 IN active site) | Inhibitory activity during the strand transfer reaction, N155H mutant, IC95 (HIV-1 IN N155H mutant) [µM] | pIC50 (HIV-1 IN N155H mutant) | Inhibitory activity during the strand transfer reaction, Q148K/G140S mutant, IC95 [1] [µM] | pIC50 [1] | pIC50 [2] |
| --- | --- | --- | --- | --- | --- | --- | --- | --- | --- | --- | --- | --- |
| 6-nitro-BFZ | 6.30 | 6.00 | 5.30 | 5.40 | 5.30 | 18.0 ± 2.0 | 6.00 | 18.8 ± 2.5 | 5.22 | 15.3 ± 2.8 | 5.40 |  |
| O=[N+]([O-])c1cc([N+](=O)[O-])c2no[n+]([O-])c2c1CBr | 5.22 | 5.30 | 5.70 | 5.30 |  |  | 5.22 |  |  |  |  | 4.60 |
| Cc1ccc([N+](=O)[O-])c2no[n+]([O-])c12 | 6.30 | 6.30 | 6.40 | 6.30 | 6.40 | 3.5 ± 0.9 | 6.22 | 8.2 ± 1.7 | 6.05 | 4.3 ± 0.8 | 6.10 | 5.00 |

pIC50: −log10 of the molar value. Where two headings read alike, the source gives them in different places.
